pKd: −log10 of the molar value. Construct, isoform or probe ends are uncertain for at least one entry.
Key:
[1] = target: VgrR-P (phosphorylated by truncated MBP-VgrS + ATP) (Xanthomonas campestris pv. campestris) (UniProt B0RPP4); experiment: MST; conditions: 10 mM MgCl2, VgrR phosphorylated by truncated VgrS + 100 uM ATP; MST: 50 mM Tris-HCl pH 7.4, 150 mM NaCl, 10 mM MgCl2, 0.05% Tween-20; recombinant protein; protein details: C-terminal His6 (pET30a); label: 5'-FAM on one strand
[2] = target: VgrR (ColR), unphosphorylated (Xanthomonas campestris pv. campestris) (UniProt B0RPP4); experiment: EMSA; conditions: EMSA: 10 mM Tris-HCl pH 7.5, 50 mM KCl, 1 mM DTT, poly(dI-dC), room temp, recombinant protein, protein details: C-terminal His6 (pET30a), label: 32P, probe letters rebuilt from the primers and the genome
[3] = target: VgrR-P (phosphorylated by truncated MBP-VgrS + ATP) (Xanthomonas campestris pv. campestris) (UniProt B0RPP4); experiment: EMSA; conditions: ATP + MBP-VgrS, stronger than unphosphorylated; EMSA: 10 mM Tris-HCl pH 7.5, 50 mM KCl, 1 mM DTT, poly(dI-dC), room temp; recombinant protein; protein details: C-terminal His6 (pET30a); label: 32P; probe letters rebuilt from the primers and the genome

“GCCCGATTTCACGTCTTTCTTCTTTTTCATTAACGGGACTTTAATTCCTG (double strand) [PtdvA 50 bp, 5'-FAM (MST)]” gave a pKd [1] of 7.91.
“GTACCATGGCTCTCTCTCCAAGTGATCTTGGGTACTGCCAAGGGTTTGTTGGCCCGGCGGGGGATCCGAAGAAGCGGATCCAAAACGTCAGGGTGAACCGATGGTATATGCGTTGCGTCAGGAATTAAAGTCCCGTTAATGAAAAAGAAGAAAGACGTGAAATCGGGCGACGAACGGTCGGCCACAACGTAAAACGCCTGCAGTGC (double strand) [PtdvA 188 bp (XC1241 promoter PCR product)]”: binds ([2]; unlabeled probe competes).
“GTACCATGGCTCTCTCTCCAAGTGATCTTGGGTACTGCCAAGGGTTTGTTGGCCCGGCGGGGGATCCGAAGAAGCGGATCCAAAACGTCAGGGTGAACCGATGGTATATGCGTTGCGTCAGGAATTAAAGTCCCGTTAATGAAAAAGAAGAAAGACGTGAAATCGGGCGACGAACGGTCGGCCACAACGTAAAACGCCTGCAGTGC (double strand) [PtdvA EMSA probe (Fig 6D, 8B, 8D)]”: binds [3]; binds ([2]; no phosphorylation, similar with MBP-VgrS H186A).

Reference: publication PMC5231390, “Two-Component Signaling System VgrRS Directly Senses Extracytoplasmic and Intracellular Iron to Control Bacterial Adaptation under Iron Depleted Stress” (PLoS Pathogens, 2016)
